Results reported in patent publication US20090304746A1.

Molecular target: HLA-A*0202 (human), P30375
Experiment: competition with 125I-labeled probe for purified HLA, gel filtration

Row | IC50 | Binder
1 | 7.17 µM | ALSTGLIHL (modifications not checked) [HCV NS1/E2 686 peptide 1013.12]
2 | 3.07 µM | HLHQNIVDV (modifications not checked) [HCV NS1/E2 696 peptide 939.14]
